Series [1] has as its system Vk2/E6E7 cells. The series can be described thus: Vk2/E6E7 cell viability.
For series [2], the system named is Primary vaginal keratinocytes. The series can be described thus: Primary vaginal keratinocyte viability. The format is cell-based, human.
The subject of series [3] is P4R5 cells. Briefly: P4R5 cell viability, MTT. The settings on record: P4-R5 cells. The text has this: To build on the information provided by the monomeric biguanide data a series of polybiguanide molecules were synthesized with varied linker length as described in Example 1. In these molecules the methylene spacer arms between the biguanide functionalities (X and Y in Forumla I) have been changed.
As described above the effect of PEHMB and related compounds on P4R5 cell viability after a two-hour exposure to the compound was compared to the effects of control compounds such as N-9. […] To further evaluate the effect of this class of compound on various types of cells (in particular PEHMB P4-R5 cells, ME-180 cells (ATCC HTB-33; cervical epidermoid carcinoma), VK2/E6E7 human vaginal cell line (Fichorova et al. 1997 Biol. Reprod. 57:847-855), and human primary vaginal karatinocytes (isolated from tissues obtained from vaginal reconstructive surgery)) the compounds were incubated with the different cells for various lengths of time before assessment of cell viability.

The test system of series [4] is ME-180 cells. The series can be described thus: ME-180 cell viability. The format is cell-based.

Regarding dextran sulfate, the “CC50 % 10 minute exposure” value in series [1] (10 minute exposure) and in series [4] (10 minute exposure) was roughly 2.0% each time. In addition, the “CC50 % 2 hr exposure” value is on record as greater than 1.0% in series [1] (2 hr exposure), 0.7% in series [2] and 2.0% in series [4] (2 hr exposure). In addition, the “CC50 % 6 hr exposure” value in series [1] (6 hr exposure), in series [3] and in series [4] (6 hr exposure) was greater than 1.0% throughout.

For the origin of these results see patent US20120148530A1, “Method for the treatment or prevention of virus infection using polybiguanide-based compounds” (Novaflux Biosciences, Inc., priority 2003, published 2012).
